Anti-infective test results gathered from many reports (values: NIAID ChemDB through PubChem).

Common to all: growth or infection tests; organism: Hepatitis C virus

An empty or dashed field is not shown.

SMILES | read by | conditions | endpoint | cell line | strain | result
O=C(O)/C=C/c1ccc(NC(=O)C2(NC(=O)c3ccc4c(c3)nc(-c3ccsc3)n4C3CCCCC3)CCCC2)cc1 | - | - | EC50 | Huh7 | - | ≤5 µM
CNC(=O)c1c(-c2ccc(F)cc2)oc2cc(C3CCN(C(C)=O)C3)c(OC)cc12 | replicon | - | EC50 | Huh7 | - | <10 µM
COc1ccc(CNc2ccc3c(Nc4ccncc4)nc(-c4cc(Cl)ccc4F)nc3n2)cc1 | replicon | - | EC50 | Huh7 | - | 3.9 µM
Cc1cnc(C(=O)Nc2ccc(-c3cc(N(C(=O)C4CCC(C)CC4)C(C)C)c(C(=O)O)s3)cc2)cn1 | replicon | - | EC50 | - | 1a | <0.5 µM
COC(=O)[C@H](C)NP(=O)(OC[C@H]1O[C@@H](n2ccc(=O)[nH]c2=O)[C@](C)(F)[C@@H]1O)Oc1ccccc1 | replicon / PCR | - | EC90 | - | S282T mutant | 34.7 µM
CC1(C)CC(=O)C2=C(C1)Nc1c(O)cccc1NC2c1cccs1 | luciferase / reporter gene / replicon | - | EC50 | - | 1b | >10 µM
COC(=O)c1cnccc1Nc1nc(-c2cc(Cl)ccc2F)nc2nc(N(C)Cc3ccccc3)ccc12 | replicon | - | EC50 | Huh7 | - | >10 µM
CNC(=O)c1c(-c2ccc(F)cc2)oc2cc(-c3ccco3)c(OC(C)C)cc12 | replicon | - | EC50 | Huh7 | - | <30 µM
CCC(=O)c1c(-c2ccc(F)cc2)oc2cc(N(CCO)S(C)(=O)=O)c(C3CC3)cc12 | luciferase | - | EC50 | JFH1 | - | 0.1564 µM
CC1CCC(C(=O)N(c2cc(-c3ccc(NC(=O)c4ccccn4)s3)sc2C(=O)O)C(C)C)CC1 | replicon | - | EC50 | - | 1a | <0.5 µM
CC(=O)N1c2cccc(O)c2NC2=C(C(=O)CC(C)(C)C2)C1c1cn(C)c2ccccc12 | luciferase / reporter gene / replicon | - | EC50 | - | 1b | 93.67 µM
O=C(Cc1cccc(Cl)c1)N/N=C/c1ccccc1NS(=O)(=O)c1ccc(C(F)(F)F)cc1 | replicon | - | EC50 | Huh7 | - | >50 µM
CC1(C)CC(=O)C2=C(C1)Nc1c(O)cccc1N(C(=O)c1ccon1)C2c1ccc(OCc2ccccc2)cc1F | luciferase / reporter gene / replicon | - | EC50 | - | 1b | 0.88 µM
C=C[C@@H]1C[C@]1(NC(=O)[C@@H]1C[C@@H](Oc2cc(-c3ccccc3)nc3cc(OC)ccc23)CN1C(=O)[C@@H](NC(=O)OC(C)(C)C)C(C)(C)C)C(=O)NS(=O)(=O)c1cccc2ccccc12 | replicon | - | EC50 | Huh7 | 1b | <0.5 µM
CNC(=O)c1c(-c2ccc(N3CCOCC3)cc2)oc2ccc(OC)cc12 | replicon | - | EC50 | Huh7 | - | >30 µM
CCOc1nc(N)nc2c1ncn2[C@@H]1O[C@@H]2COP(=O)(OC(C)C)O[C@H]2[C@@]1(C)F | replicon | 16 d | EC50 | - | 2a | 0.73 µM
CC(C)CC[C@@]1(C)C(=O)C(C2=NS(=O)(=O)c3cc(NS(C)(=O)=O)ccc3N2)=C(O)c2ccccc21 | luciferase | - | EC50 | Huh7 | 2b | 2.928 µM
C=COC(=O)N[C@H](C(=O)N1C[C@H](Oc2cc(-c3ccccc3)nc3cc(OC)ccc23)C[C@H]1C(=O)N[C@]1(C(=O)NS(=O)(=O)C2CC2)C[C@H]1C=C)C(C)(C)C | replicon | - | EC50 | Huh7 | 1b | <0.05 µM
O=C(Cc1ccc(C(F)(F)F)c(F)c1)N/N=C/c1ccccc1OS(=O)(=O)c1ccc(C(F)(F)F)cc1 | replicon | - | EC50 | Huh7 | - | <5 µM
CNC(=O)c1c(-c2ccc(F)cc2)oc2cc(N(C)S(=O)(=O)CC3CC3)c(OC)cc12 | replicon | - | EC50 | Huh7 | - | <1 µM
CCN1CCC(NC(=O)c2ccc3c(c2)nc(-c2ccoc2)n3C2CCCCC2)(C(=O)Nc2ccc(-c3nc(C(N)=O)cs3)cc2)CC1 | - | - | EC50 | Huh7 | - | ≤5 µM
COc1cccc(CC(=O)N/N=C/c2ccccc2OS(=O)(=O)c2ccc(C(F)(F)F)cc2)c1OC | replicon | - | EC50 | Huh7 | - | <5 µM
CCOC(=O)/N=C1\SC(c2ccc(NC(=O)[C@@H](C)NC(=O)OCc3ccccc3)cc2)C(=O)N1Cc1cccnc1 | replicon | - | EC50 | Huh7 | - | <0.1 µM
O=C(NCc1ccccn1)Nc1ccccc1OS(=O)(=O)c1ccc(C(F)(F)F)cc1 | replicon | - | EC50 | Huh7 | - | >50 µM
COc1c(-c2ccc3cc(NS(C)(=O)=O)ccc3c2)cc(-n2ccc(=O)[nH]c2=O)cc1C(C)(C)C | luciferase | - | EC50 | Huh7 | genotype 1a H77 | 0.00096 µM
C[C@H]1CCC[C@H](C)C1n1c(-c2ccccn2)nc2cc(C(=O)NC3(C(=O)Nc4ccc(/C=C/C(=O)O)cc4)CCCC3)ccc21 | - | - | EC50 | Huh7 | - | ≤5 µM
CC(C)(C)O[C@H]1C[C@H](C(=O)Nc2ccc(C3SC(=Nc4ccc(N5CCOCC5)cc4)N(Cc4ccccn4)C3=O)cc2)N(C(=O)OCc2ccccc2)C1 | replicon | - | EC50 | Huh7 | - | 1–5 µM
CC1CCC(C(=O)N(CC(F)F)c2cc(-c3ccc(NC(=O)c4cscn4)cc3)sc2C(=O)O)CC1 | replicon | - | EC50 | - | 1b | <0.5 µM
O=C(Cc1cccc(Cl)c1)N/N=C/c1ncccc1OS(=O)(=O)c1ccc(C(F)(F)F)cc1 | replicon | - | EC50 | Huh7 | - | 5–50 µM
CC1CCC(C(=O)N(c2cc(-c3ccc(NC(=O)c4cscn4)cc3)sc2C(=O)O)C2CCC2)CC1 | replicon | - | EC50 | - | 1a | <0.5 µM
COc1ccc2c(O[C@@H]3C[C@@H](C(=O)NC4(C(=O)NS(=O)(=O)C5CC5)CCC4)N(C(=O)[C@@H](NC(=O)OC(C)(C)C)C(C)(C)C)C3)cc(-c3ccccc3)nc2c1 | replicon | - | EC50 | Huh7 | 1b | <0.5 µM
O=C(Cc1c[nH]c2ccccc12)N/N=C/c1ccccc1OS(=O)(=O)c1ccc(C(F)(F)F)cc1 | replicon | - | EC50 | Huh7 | - | <5 µM
CNC(=O)c1cnccc1Nc1nc(-c2cc(Cl)ccc2F)nc2nc(N)ccc12 | replicon | - | EC50 | Huh7 | - | >10 µM
CCCCn1c(=O)c2ccccc2c2cc(C(O)(C(F)(F)F)C(F)(F)F)c3c(c21)OCO3 | luciferase | - | EC50 | LucNeo2 cells | 1b | 0.23 µM
Cc1ncccc1C(=O)Nc1ccc(-c2cc(N(C(=O)C3CCC(C)CC3)C(C)C)c(C(=O)O)s2)cc1 | replicon | - | EC50 | - | 1a | >0.5 µM
Cc1cccc(S(=O)(=O)Oc2ccccc2/C=N/NC(=O)Cc2ccccc2)c1 | replicon | - | EC50 | Huh7 | - | >50 µM
CN=C1SC(c2ccc(NC(=O)[C@@H]3CCCN3C(=O)Cc3ccccc3)cc2)C(=O)N1Cc1ccccn1 | replicon | - | EC50 | Huh7 | - | <0.1 µM
CNC(=O)c1c(-c2ccc(F)cc2)oc2cc(-c3c(C)noc3C)c(OCc3cscn3)cc12 | replicon | - | EC50 | Huh7 | - | <1 µM
COc1cccc(CC(=O)N/N=C/c2ccncc2OS(=O)(=O)c2ccc(C(F)(F)F)cc2)c1 | replicon | - | EC50 | Huh7 | - | <5 µM
COc1cnccc1Nc1nc(-c2cc(Cl)ccc2F)nc2ncccc12 | replicon | - | EC50 | Huh7 | - | 0.56 µM
Cc1cnc(CN2C(=O)C(c3ccc(NC(=O)[C@@H](C)NC(=O)OCc4ccccc4)cc3)SC2=Nc2cccc(F)c2)cn1 | replicon | - | EC50 | Huh7 | - | <0.1 µM
CCOC(=O)N[C@H](C(=O)N1C[C@H](Oc2cc(-c3ccccc3)nc3cc(OC)ccc23)C[C@H]1C(=O)N[C@]1(C(=O)NS(=O)(=O)C2CC2)C[C@H]1CC)C(C)C | replicon | - | EC50 | Huh7 | 1b | <0.5 µM
CNC(=O)c1c(-c2ccc(F)cc2)oc2cc(C3CNC(=O)C3C(=O)NC)c(OC)cc12 | replicon | - | EC50 | Huh7 | - | <10 µM
CC(C)(C)OC(=O)N(c1ccncc1)c1nc(-c2cc(Cl)ccc2F)nc2ncccc12 | replicon | - | EC50 | Huh7 | - | 0.13 µM
COc1cccc(CC(=O)N/N=C/c2ccncc2OS(=O)(=O)c2ccc(C)cc2)c1 | replicon | - | EC50 | Huh7 | - | <5 µM
C=C[C@@H]1C[C@]1(NC(=O)[C@@H]1C[C@@H](Oc2cc(-c3ccccc3)nc3cc(OC)ccc23)CN1C(=O)[C@@H](NC(=O)OC(C)(C)C)C(C)(C)C)C(=O)NS(=O)(=O)c1ccccc1 | replicon | - | EC50 | Huh7 | 1b | <0.05 µM
CNC(=O)c1c(-c2ccc(F)cc2)oc2cc(N3CCCC(O)C3)c(OC(C)C)cc12 | replicon | - | EC50 | Huh7 | - | <10 µM
C[C@@H](NC(=O)Cc1ccccc1)C(=O)Nc1ccc(C2SC(=Nc3cccc(F)c3)N(c3ccccn3)C2=O)cc1 | replicon | - | EC50 | Huh7 | - | <0.1 µM
CC1(C)CC(=O)C2=C(C1)Nc1c(O)cccc1N(C(=O)c1ccccn1)[C@H]2c1ccc(OCc2ccccc2)cc1F | luciferase / reporter gene / replicon | - | EC50 | - | 1b | 0.58 µM
C=C[C@@H]1C[C@]1(NC(=O)[C@@H]1C[C@@H](Oc2cc(-c3ccccc3)nc3cc(OC)ccc23)CN1C(=O)[C@@H](NC(=O)OC(C)(C)C)C(C)(C)C)C(=O)NS(=O)(=O)CC1CCC1 | replicon | - | EC50 | Huh7 | 1b | <5 µM
CC1(C)CC(=O)C2=C(C1)Nc1c(O)cccc1NC2c1ccco1 | luciferase / reporter gene / replicon | - | EC50 | - | 1b | 57.5 µM
CCC[C@@H](NC(=O)c1ccc2c(c1)nc(-c1ccoc1)n2C1CCCCC1)C(=O)Nc1ccc(/C=C/C(=O)O)cc1 | - | - | EC50 | Huh7 | - | ≤5 µM

Repeating the first 7 entries:

O=C(O)/C=C/c1ccc(NC(=O)C2(NC(=O)c3ccc4c(c3)nc(-c3ccsc3)n4C3CCCCC3)CCCC2)cc1 ; endpoint: EC50 ; cell line: Huh7 ; result: ≤5 µM
CNC(=O)c1c(-c2ccc(F)cc2)oc2cc(C3CCN(C(C)=O)C3)c(OC)cc12 ; read by: replicon ; endpoint: EC50 ; cell line: Huh7 ; result: <10 µM
COc1ccc(CNc2ccc3c(Nc4ccncc4)nc(-c4cc(Cl)ccc4F)nc3n2)cc1 ; read by: replicon ; endpoint: EC50 ; cell line: Huh7 ; result: 3.9 µM
Cc1cnc(C(=O)Nc2ccc(-c3cc(N(C(=O)C4CCC(C)CC4)C(C)C)c(C(=O)O)s3)cc2)cn1 ; read by: replicon ; endpoint: EC50 ; strain: 1a ; result: <0.5 µM
COC(=O)[C@H](C)NP(=O)(OC[C@H]1O[C@@H](n2ccc(=O)[nH]c2=O)[C@](C)(F)[C@@H]1O)Oc1ccccc1 ; read by: replicon / PCR ; endpoint: EC90 ; strain: S282T mutant ; result: 34.7 µM
CC1(C)CC(=O)C2=C(C1)Nc1c(O)cccc1NC2c1cccs1 ; read by: luciferase / reporter gene / replicon ; endpoint: EC50 ; strain: 1b ; result: >10 µM
COC(=O)c1cnccc1Nc1nc(-c2cc(Cl)ccc2F)nc2nc(N(C)Cc3ccccc3)ccc12 ; read by: replicon ; endpoint: EC50 ; cell line: Huh7 ; result: >10 µM

ECn: concentration that inhibits the pathogen or its effect by n%. a–b is a range or a potency band. Neighbouring rows are from separate reports.